Test results as given in PMC9982069, “Crystal structure of the membrane (M) protein from a bat betacoronavirus” (2023).

Target: batCOV5-M_(H155A), affinity- and SEC-purified (MST), Pipistrellus bat coronavirus HKU5, A3EXD6 1-220
Assay: MST

## batCOV5-N3 (residues 391-427) with C-terminal GFP-His10 (MST) H155A
  pKd: 5.44

pKd: −log10 of the molar value.
